The record followed here is patent publication US20150044236A1.

In the experiment the target is human Kv1.3 voltage-gated potassium channel (human) (UniProt P22001). As to the kind of experiment: cell-based or functional assay.

The substance 20 kDa-PEG-[Lys16]ShK-Ala (peptide) came in with a Potency Relative to ShK (WB, IL2) of 11.2 fold.
In turn, “Bivalent Fc-ShK(1-35 Q16K) homodimer (IgG2) (Fc fusion)” came in with a Potency Relative to ShK (WB, IL2) of 27.6 fold; a WB (IFNg) IC50 of 3.14 nM; a WB (IL-2) IC50 of 1.85 nM.
